{"source": "patent US20150010915", "tested_on": "T1, NanR (wild type) (Vibrio vulnificus)", "T1 sequence (limits assumed)": "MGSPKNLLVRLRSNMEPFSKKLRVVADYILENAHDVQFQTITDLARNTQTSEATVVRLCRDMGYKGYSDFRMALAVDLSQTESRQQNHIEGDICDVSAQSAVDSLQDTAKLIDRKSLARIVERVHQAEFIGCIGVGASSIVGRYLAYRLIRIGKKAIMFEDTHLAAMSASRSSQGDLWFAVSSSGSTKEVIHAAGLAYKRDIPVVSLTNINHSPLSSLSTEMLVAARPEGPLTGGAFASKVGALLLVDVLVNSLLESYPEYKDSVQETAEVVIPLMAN", "experiment": "ITC", "details": "50 mM Tris-HCl pH 7.0, 300 mM NaCl, 25 C, purified recombinant protein, protein details: His (pHis-Parallel1)", "note": "For at least one entry, the source does not settle the construct or the ends of the probe. Protein sequences can lack the tags named with them."}
{"sequence": "GTTTGAAAAAAATCTTCGTTATGGATTATTATGGCGATGGAGATTATTTTCAAAC (double strand) [NanR-binding duplex (ITC)]", "values": [{"measurement": "Kd", "setting": "NanR/ManNAc-6P complex, 130-fold reduced", "result": 186, "unit": "µM"}, {"measurement": "Kd", "setting": "apo-NanR dimer, 1:1 stoichiometry", "result": 1.4, "unit": "µM"}]}
